The text below walks through data of patent publication US6774235B2, “Trisubstituted 1,3,5-triazine derivatives” (Janssen Pharmaceutica N.V., priority 1998, dated 2004).

The subject of the series is HIV-1 (wildtype IIIB). The format is cell-based. Conditions: selectivity index, ratio of CC50 to IC50. Here is the method: A rapid, sensitive and automated assay procedure was used for the in vitro evaluation of anti-HIV agents. An HIV-1 (wildtype IIIB) transformed T4-cell line, MT-4, which was previously shown (Koyanagi et al., Int. J Cancer, 36, 445-451, 1985) to be highly susceptible to and permissive for HIV infection, served as the target cell line. Inhibition of the HIV-induced cytopathic effect was used as the end point. […] The percent protection achieved by the compound in HIV-infected cells was calculated by the following formula: [formula]
whereby (ODT)HIV is the optical density measured with a given concentration of the test compound in HIV-infected cells; (ODC)HIV is the optical density measured for the control untreated HIV-infected cells; (ODC)MOCK is the optical density measured for the control untreated mock-infected cells; all optical density values were determined at 540 nm. […] The ratio of CC50 to IC50 was defined as the selectivity index (SI).
As for `N#Cc1ccc(Nc2nc(N)nc(Nc3c(F)c(F)c(F)c(F)c3F)n2)cc1` [Compound 67], the SI came to 412. With `Cc1cc(Br)cc(Cl)c1Nc1nc(N)nc(Nc2ccc(C#N)cc2)n1` [Compound 63, 4-[[4-amino-6-[(4-bromo-2-chloro-6-methylphenyl)amino]-1,3,5-triazin-2-yl]amino]-benzonitrile], the SI came out at 16561. For the compound `COc1cc(OC)c(Nc2nc(N)nc(Nc3ccc(C#N)cc3)n2)c(OC)c1` [Compound 68], the SI came to 4173. The value for `N#Cc1ccc(Nc2nc(N)nc(Oc3c(F)cc(F)cc3F)n2)cc1` [Compound 44] was more than 19607; that for `N#Cc1ccc(Nc2nc(N)nc(Nc3c(F)cc(F)cc3Br)n2)cc1` [Compound 17] was 16311; that for `N#Cc1ccc(Nc2nc(N)nc(Sc3ccc(F)cc3Cl)n2)cc1` [Compound 55] was more than 27777. Turning to `Cc1c(C)c(Oc2nc(N)nc(Nc3ccc(C#N)cc3)n2)c(Cl)c(C)c1Cl` [Compound 53], the SI worked out at 142. With `Cc1ccc(Oc2nc(N)nc(Nc3ccc(C#N)cc3)n2)c(C)c1` [Compound 62] the figure was 19110; with `Cc1cc(C)c(Nc2nc(N)nc(Nc3ccc(C#N)cc3)n2)c(C)c1N` [Compound 61], 20549; with `Cc1cc(Br)cc(Cl)c1Oc1nc(N)nc(Nc2ccc(C#N)cc2)n1` [Compound 33, 4-[[4-amino-6-(4-bromo-2-chloro-6-methylphenoxy)-1,3,5-triazin-2-yl]amino]benzonitrile], more than 4761. Consider `N#Cc1ccc(Nc2nc(N)nc(Sc3c(Cl)cccc3Cl)n2)cc1` [Compound 19, 4-[[4-amino-6-[(2,6-dichlorophenyl)thio]-1,3,5-triazin-2-yl]amino]benzonitrile], for which the SI stood at 11285. Turning to `N#Cc1ccc(Nc2nc(N)nc(Oc3c(Cl)ccc(Cl)c3Cl)n2)cc1` [Compound 43], the SI stood at 4668. With `COc1cc(C#N)ccc1Oc1nc(N)nc(Nc2ccc(C#N)cc2)n1` [Compound 47] the figure was more than 1340; with `Cc1cccc(C(C)C)c1Nc1nc(N)nc(Nc2ccc(C#N)cc2)n1` [Compound 8], 56; with `CC(=O)c1cc(F)cc(F)c1Oc1nc(N)nc(Nc2ccc(C#N)cc2)n1` [Compound 49], more than 1308. `N#Cc1ccc(Nc2nc(N)nc(NNc3c(Cl)cccc3Cl)n2)cc1` [Compound 22]: the SI is reported as more than 33333. Consider `N#Cc1ccc(Nc2nc(NO)nc(Nc3c(Cl)cccc3Cl)n2)cc1` [Compound 4, 4-[[[6-(2,6-dichlorophenylamino)-4-(hydroxylamino)]-1,3,5-triazin-2-yl]amino]-benzonitrile], for which the SI was 4187. The value for `CC(=O)c1cc(Cl)cc(Cl)c1Oc1nc(N)nc(Nc2ccc(C#N)cc2)n1` [Compound 39] was 1; that for `Cc1ccc(Sc2nc(N)nc(Nc3ccc(C#N)cc3)n2)c(C)c1` [Compound 59] was 26975; that for `Cc1cc(Cl)cc(Cl)c1Oc1nc(N)nc(Nc2ccc(C#N)cc2)n1` [Compound 34] was 3658.

`N#Cc1ccc(Nc2nc(N)nc(Nc3c(Cl)cc(C(F)(F)F)cc3Cl)n2)cc1` [Compound 70]: the SI came out at 4471. As for `CC(C)c1cc(Br)c(Nc2nc(Nc3ccc(C#N)cc3)nc(Nc3ccc(C#N)cc3)n2)c(Br)c1` [Compound 75], the SI amounted to 100. As for `N#Cc1ccc(Nc2nc(N)nc(Nc3c(Cl)cc(Cl)cc3Cl)n2)cc1` [Compound 18], the SI was 6033. As to `Cc1cc(C)c(Nc2nc(N)nc(Nc3ccc(C#N)cc3)n2)c(C)c1Br` [Compound 15], the SI is reported as 498. In the case of `N#Cc1ccc(Nc2nc(N)nc(Oc3c(Cl)cccc3Cl)n2)cc1` [Compound 1], the SI is more than 6451. Turning to `CCc1cccc(CC)c1Nc1nc(N)nc(Nc2ccc(C#N)cc2)n1` [Compound 12], the SI came to 1449.

In the case of `Cc1cccc(C)c1Nc1nc(NO)nc(Nc2ccc(C#N)cc2)n1.Cl` [Compound 5], the SI was 3458.
